Tested on: Saccharomyces cerevisiae ABC16-Green Monster
Experiment: growth inhibition at single dose (up to 150 µM), below the 70% cut-off for dose-response; higher = more potent
Details: 18 h; 30 °C; YPD
How it was run: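 Data are given as percent growth inhibition. Log-phase drug-sensitive S. cerevisiae ABC16-Green Monster cells (OD600 0.1–0.2, 200 µl per well in 96-well plates) were treated in biological duplicates with each library compound at a single 150 µM dose, with untreated cultures alongside, and OD600 was measured at 0 h and after 18 h at 30 °C. Compounds falling below 70% in both replicates were not taken to dose-response.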

SMILES	growth inhibition at single dose [%]
c1ccc2c(NCCCCCCNc3c4c(nc5ccccc35)CCCC4)c3c(nc2c1)CCCC3	< 70
CCC1(C)CC(CCNCc2ccccc2O)(c2ccc(C)cc2)CCO1 (configuration not stated)	< 70
